# Experimental data as given in the supplement of paper PMC9931576.
# Human monoclonal antibodies against the spike receptor-binding domain (heavy:light variable regions). IC50 against pseudoviruses bearing the spike of naturally observed variants; lower = stronger; >10 µg/ml means not reached at the top dose. No active / inactive call. The stated detection limit is 0.0005 µg/ml; values near or below 0.001 µg/ml lie at the floor of the assay.
# B1: BD55-6649 (protein)
# chain 1: EVQLVESGGGLVQPGGSLRLSCAASGFTFNTYDMHWIRQVSGKGLEWVSTIGTAGDTYYPDSVKGRFTISRENVKNSLYLQMSSLRAGDTATYYCVRASTYGYYVYFDYWGQGTLVTVSS
# chain 2: DFQMTQSPSSLSASVGDTVTITCRASQSIGRYLNWYQQKPGKAPKLLIYVVSTLQSGVPSRFSGSGSGTDFSLTIRSLQPEDFATYYCQQSYSTAEYTFGQGTKLEIK
# B2: BD55-6665 (protein)
# chain 1: QVQLVQSGAEVKKPGASVKVSCKASGYTFTSYDIHWVRQATGQGLEWMGRMNPSSANTDYAHKFQSRVTMTRNTSINTVYMELSGLRFEDTAVYYCAREGRDLGFYYYYGMDVWGQGTTVTVSS
# chain 2: DIQMTQSPSSLSASVGDKITITCRASQSITTYLNWYQQKPGKPPKLLVYAASSLQSGVPSRFSGSGSGTDFTLTISSLQPEDFATYHCQQSYSTPTTFGQGTQVEIK
# B3: BD55-6669 (protein)
# chain 1: EVRLVESGGGLVKPGGSLRLSCAASGFSFSDAWMSWVRQAPGKGLEWVGHIKSEISGGTTDYAAPVKGRFTISRDDSKNTVYLQMNSLKTEDTAMYYCVSSDIWRYYHYGMDVWGPGTTVTVSS
# chain 2: DIQMTQSPSILSASVGDRVTITCRASQSISSWLAWYQQKPGKAPKLLIYKASTLESGVPSRFSGSGSGTEFTLTISSLQPDDFATYYCQQYNSYPLTFGGGTKVQIK
# B4: BD55-6672 (protein)
# chain 1: QVTLKESGPVLVKPTETLTLTCTVSGFSLSNAKLGVSWIRQPPGKALEWLAHIFSNDEKSYNTFLMSRLTISKDTSRSQVVLTLTNLDPMDTGTYHCARLSNSWFGYYFDYWGQGTLVTVSS
# chain 2: DIQMTQSPSSLSASIGDRVTITCRASQSISSYLNWYQQKSGEAPKLLIYAASTLQTGVPSRFSGSGSGTDFTLTISGLQPDDFAIYYCQQSYTTLLTFGGGTKVEIK
# B5: BD55-6673 (protein)
# chain 1: EVQLVESGGGLVKPGRSLRLSCTASGFTFGDYAMSWFRQAPGKGLEWVGFIRSKTHGGTTEDAASVKGRFTISRDDSKSIAYLQMNSLKTEDTAVYYCTREGTYSYYYYYAMDVWGQGTTVTVSS
# chain 2: DIQMTQSPSSLSASVGDRVTITCRASQSISYYLNWYQQKPGKAPKLLIYAASSLQSGVPSRFSGSGSGTDFTLTISSLQPEDFATYYCQHSYSIPITFGQGTRLEIK
# B6: BD55-6674 (protein)
# chain 1: EVKLVESGGGLVQPGGSLRLSCAGSGFIFSDHWMSWVRQTPGKGLEWVANINQDGSERYYVDSVRGRFTISRDDAKKSLSLQMNGLTVEDTAVYYCARGDSIRWYTEYFQLWGQGALVTVSS
# chain 2: SELTQPPSLSVSPGQTARVSCSGDALARQHAYWYQQKPGQAPVLLIYKDKERPSGIPERFSGSDSGTTATLTITGVQAEDEADYFCQSADSSASHYVFGSGTKVTVL
# Target: SARS-CoV-2 Omicron BA.1 spike pseudovirus
# Experiment: pseudovirus neutralization IC50; higher = weaker neutralization
# Description: (§1)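 Single-round VSV luciferase pseudovirus mixed with antibody dilutions for 1 h and put on Huh-7 cells for about a day; IC50 from the dose curve.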
row,Binder,pseudovirus neutralization IC50
1,B1,> 10 µg/mL
2,B2,> 10 µg/mL
3,B3,> 10 µg/mL
4,B4,> 10 µg/mL
5,B5,> 10 µg/mL
6,B6,> 10 µg/mL

# Target: SARS-CoV-2 Omicron BA.2 spike pseudovirus
# Experiment: as above
# Description: as §1
row,Binder,pseudovirus neutralization IC50
1,B1,> 10 µg/mL
2,B2,> 10 µg/mL
3,B3,> 10 µg/mL
4,B4,> 10 µg/mL
5,B5,> 10 µg/mL
6,B6,> 10 µg/mL

# Target: SARS-CoV-2 Omicron BA.2.75 spike pseudovirus
# Experiment: as above
# Description: as §1
row,Binder,pseudovirus neutralization IC50
1,B1,> 10 µg/mL
2,B2,> 10 µg/mL
3,B3,> 10 µg/mL
4,B4,> 10 µg/mL
5,B5,> 10 µg/mL
6,B6,> 10 µg/mL

# Target: SARS-CoV-2 Omicron BA.5 spike pseudovirus
# Experiment: as above
# Description: as §1
row,Binder,pseudovirus neutralization IC50
1,B1,> 10 µg/mL
2,B2,> 10 µg/mL
3,B3,> 10 µg/mL
4,B4,> 10 µg/mL
5,B5,> 10 µg/mL
6,B6,> 10 µg/mL

# Target: SARS-CoV-2 Omicron BQ.1.1 spike pseudovirus
# Experiment: as above
# Description: as §1
row,Binder,pseudovirus neutralization IC50
1,B1,> 10 µg/mL
2,B2,> 10 µg/mL
3,B3,> 10 µg/mL
4,B4,> 10 µg/mL
5,B5,> 10 µg/mL
6,B6,> 10 µg/mL

# Target: SARS-CoV-2 Omicron XBB spike pseudovirus
# Experiment: as above
# Description: as §1
row,Binder,pseudovirus neutralization IC50
1,B1,> 10 µg/mL
2,B2,> 10 µg/mL
3,B3,> 10 µg/mL
4,B4,> 10 µg/mL
5,B5,> 10 µg/mL
6,B6,> 10 µg/mL

# Target: SARS-CoV-2 early D614G spike pseudovirus
# Experiment: as above
# Description: as §1
row,Binder,pseudovirus neutralization IC50
1,B1,> 10 µg/mL
2,B2,> 10 µg/mL
3,B3,> 10 µg/mL
4,B4,> 10 µg/mL
5,B5,> 10 µg/mL
6,B6,> 10 µg/mL
